Compound potency records, mixed from different reports. Data source: NIAID ChemDB in PubChem.

Common to all: growth or infection tests; agent: Hepatitis C virus

An empty or dashed field is not shown. a–b is a range or a potency band. ECn is the concentration giving n% inhibition of infection, replication or growth. Rows are shuffled and stem from different studies.

structure,read-out,strain,cells,method,setting,value
COc1cc(Cl)cc(COC(=O)C2=C(C)NC(=S)NC2)c1,EC50,-,Huh7,ELISA,-,<1 µM
CS(=O)(=O)NC(=O)c1c(-c2ccc[nH]c2=O)c2c3occc3cc(F)c2n1Cc1cc(F)ccc1F,EC50,-,-,replicon,-,0.5–1.5 µM
COc1ccc(NCc2cc3ccccc3oc2=O)cc1,EC50,-,Ava5,-,-,20 µM
O=C(c1ccccc1)N1CCC2(CCCN(c3ncc(-c4ccccc4)c(-c4ccc(Cl)cc4)n3)C2)CC1,EC50,H77,Huh7,luciferase,genotype 1a,0.803 µM
CCOC(=O)c1ccc(NCc2cc3ccccc3oc2=O)cc1,EC50,-,Ava5,-,-,100 µM
C[C@@]1(O)[C@H](O)[C@@H](CO)O[C@H]1c1cnc2c(=O)[nH]c(N)nn12,EC50,-,Huh7,luciferase / reporter gene,-,>100 µM
CCCS(=O)(=O)NC(=O)c1c(-c2ccc[nH]c2=O)c2c3occc3c(F)cc2n1Cc1cc2ccccc2nc1Cl,EC50,-,-,replicon,-,<0.5 µM
COc1ccc(-c2cnc3nc(N)nc(N4CCOCC4)c3n2)cn1,EC50,-,Huh7,-,-,1–10 µM
CCCCCCCCOC(=O)Nc1ncnn2c([C@@H]3O[C@H](CO)[C@@H](O)[C@@]3(C)O)ccc12,EC50,-,Huh7,luciferase / reporter gene,-,19 µM
CS(=O)(=O)NC(=O)c1c(-c2ccc[nH]c2=O)c2c3occc3c(F)cc2n1Cc1cc(F)ccc1F,EC50,-,-,replicon,-,<0.5 µM
CC(C)Oc1nc(N)nc2ncc(-c3ccc(F)cc3)nc12,EC50,-,Huh7,-,-,1–10 µM
CC1=C(C(=O)OCCc2cccc([N+](=O)[O-])c2)C(COC(=O)OCC2COC(C)(C)O2)NC(=S)N1,EC50,-,Huh7,ELISA,-,<1 µM
CCCCCOC(=O)Nc1ncnn2c([C@@H]3O[C@H](CO[P@@](=O)(N[C@@H](C)C(=O)OC(C)C)Oc4ccccc4)[C@@H](O)[C@@]3(C)O)ccc12,EC50,-,Huh7,luciferase / reporter gene,-,>100 µM
O=C(c1ccccc1)N1CCC2(CCCN(c3ncc(Br)c(-c4ccc(Cl)cc4)n3)C2)CC1,EC50,H77,Huh7,luciferase,genotype 1a,2.222 µM
C[C@@]1(O)[C@H](O)[C@@H](CO)O[C@H]1c1ccc2c(N)ncnn12,EC50,-,Huh7,luciferase / reporter gene,-,1.6 µM
CNC(=O)c1c(-c2ccc(F)cc2)oc2cc(-c3c(COC)noc3C3CC3)c(OC)cc12,EC50,-,Huh7,replicon,-,<1 µM
CC(C)C(=O)O[C@@H]1[C@@H](CO)O[C@@H](c2ccc3c(N)ncnn23)[C@]1(C)O,EC50,-,Huh7,luciferase / reporter gene,-,2 µM
CNC(=O)c1c(-c2ccc(F)cc2)oc2cc(-c3ccc[nH]3)c(OC(C)C)cc12,EC50,-,Huh7,replicon,-,<10 µM
CS(=O)(=O)NC(=O)c1c(-c2ccc[nH]c2=O)c2c3occc3c(F)cc2n1Cc1cc2ccccc2nc1Cl,EC50,-,-,replicon,-,<0.5 µM
Nc1nc(N2CCOCC2)c2nc(-c3cccc(F)c3F)cnc2n1,EC50,-,Huh7,-,-,0.3–1 µM
CCOC(=O)[C@H](C)NP(=O)(OC[C@H]1O[C@@H](c2cnc3c(=O)[nH]c(N)nn23)[C@](C)(O)[C@@H]1O)Oc1cccc2ccccc12,EC50,-,Huh7,luciferase / reporter gene,-,>50 µM
CNC(=O)c1c(-c2ccc(F)cc2)oc2cc(N3CCOCC3)c(OCC(C)=O)cc12,EC50,-,Huh7,replicon,-,<10 µM
Nc1nc(N2CCOCC2)c2nc(-c3ccc(C(F)(F)F)cc3Cl)cnc2n1,EC50,-,Huh7,-,-,1–10 µM
CC(C)(C)C(=O)OCOP(=O)(CC[C@H]1O[C@@H](n2cnc3c(=O)[nH]c(N)nc32)[C@](C)(F)[C@@H]1O)OCOC(=O)C(C)(C)C,EC90,-,Huh7,PCR,-,>10 µM
CCC[C@H](NC(=O)[C@@H]1[C@H]2CCCC[C@H]2CN1C(=O)[C@@H](NC(=O)[C@@H](NC(=O)c1cnccn1)C1CCCCC1)C(C)(C)C)C(=O)C(=O)NC1CC1,EC50,-,-,-,-,0.93 µM
CS(=O)(=O)NC(=O)c1c(-c2ccc[nH]c2=O)c2c3ccoc3ccc2n1Cc1cc(F)ccc1F,EC50,-,-,replicon,-,>1.5 µM
CNC(=O)c1c(-c2ccc(Br)cc2)oc2ccc(OC)cc12,EC50,-,Huh7,replicon,-,<10 µM
COc1ccccc1-c1cnc2nc(N)nc(N3CCOCC3)c2n1,EC50,-,Huh7,-,-,0.3–1 µM
CNC(=O)c1c(-c2ccc(F)cc2)oc2cc(-c3ccnn3C)c(OC(C)C)cc12,EC50,-,Huh7,replicon,-,<1 µM
CC(C)(C)C(=O)OCOP(=O)(CC[C@H]1O[C@@H](n2cnc3c(N)nc(N)nc32)[C@](C)(F)[C@@H]1O)OCOC(=O)C(C)(C)C,EC90,-,Huh7,PCR,-,>10 µM
CC(C)COC(=O)Nc1ncnn2c([C@@H]3O[C@H](CO)[C@@H](O)[C@@]3(C)O)ccc12,EC50,-,Huh7,luciferase / reporter gene,-,>100 µM
O=c1oc2ccccc2cc1CNc1ccccc1,EC50,-,Ava5,-,-,90 µM
CNC(=O)c1c(-c2ccc(F)cc2)oc2cc(-c3c(C)noc3COC)c(OC)cc12,EC50,-,Huh7,replicon,-,<1 µM
CC(C)OC(=O)[C@H](C)N[P@](=O)(OC[C@H]1O[C@@H](c2ccc3c(N)ncnn23)[C@](C)(O)[C@@H]1O)OC(=O)C(C)C,EC50,-,Huh7,luciferase / reporter gene,-,0.22 µM
CC1=C(C(=O)OCCCSc2nc3ccccc3o2)C(CF)NC(=S)N1,EC50,-,Huh7,ELISA,-,1–10 µM
CNC(=O)c1c(-c2ccc(F)cc2)oc2cc(-c3ccn[nH]3)c(OC(C)C)cc12,EC50,-,Huh7,replicon,-,<10 µM
Nc1nc(N2CCOCC2)c2nc(-c3ccccc3C(F)(F)F)cnc2n1,EC50,-,Huh7,-,-,0.3–1 µM
O=C(NS(=O)(=O)C1CC1)c1c(-c2ccc[nH]c2=O)c2c3ccccc3c(F)cc2n1Cc1cc([N+](=O)[O-])ccc1F,EC50,-,-,replicon,-,<1 µM
O=C(N[C@@H]1CCCCC/C=C\[C@@H]2C[C@@]2(C(=O)NS(=O)(=O)c2ccc3c(c2)B(O)OC3)NC(=O)[C@@H]2C[C@@H](OC(=O)N3Cc4cccc(F)c4C3)CN2C1=O)OC1CCCC1,EC50,-,-,replicon,-,0.08 µM